Compound potency records, mixed from different reports. Data source: NIAID ChemDB in PubChem.

Rows are shuffled and stem from different studies.

smiles | species | cells | endpoint | test | protein | strain or isolate | value
Nc1nc2c(ncn2C[C@H]2COP(=O)(O)CO2)c(=O)[nH]1 | - | PHK | CC50 | toxicity | - | - | 8.2 µg/mL
CCN(Cc1ccccc1)C(=O)C(NC(C)=O)[C@H]1CC(C(=O)O)C[C@@H]1N=C(N)N | Influenza A virus (H6N2) | - | IC50 | target | Neuraminidase | - | 0.67 µM
NC(=O)c1c[se]c([C@@H]2O[C@H](CO)[C@@H](O)[C@H]2O)n1 | Rift valley fever virus | VERO | EC50 | culture | - | Zagazig 501 | 2.8 µg/mL
O=C(N[C@@H](Cc1c[nH]c2ccc(O)cc12)C(=O)O)c1ccc2c(c1)nc(-c1ccoc1)n2C1CCCC[C@H]1CCc1ccccc1 | Poliovirus | - | IC50 | target | RNA-dependent RNA polymerase | - | >25 µM
CC(=O)NC(C(=O)N1CCCC(C)C1)[C@H]1CC(C(=O)O)C[C@@H]1N=C(N)N | Influenza A virus (H6N2) | - | IC50 | target | Neuraminidase | - | 2.55 µM
CC(C)=Cc1nc2cc(C(=O)O)ccc2n1C1CCCCC1 | Poliovirus | - | IC50 | target | RNA-dependent RNA polymerase | - | >25 µM
CN(C)c1ncnc2c1ncn2CCCOCP(=O)(O)O | - | PHK | CC50 | toxicity | - | - | 13.9 µg/mL
COc1c(C)c2c(c(O)c1C/C=C(\C)CCC(=O)O)C(=O)OC2 | Monkeypox virus | 3T3 | EC50 | culture | - | - | 0.2 µM
O=C(N[C@@H](Cc1c[nH]c2ccc(NS(=O)(=O)C(F)(F)F)cc12)C(=O)O)c1ccc2c(c1)nc(-c1ccoc1)n2C1CCCCC1 | Poliovirus | - | IC50 | target | RNA-dependent RNA polymerase | - | >25 µM
CC(=O)NC(C(=O)N1CCC1)[C@H]1CC(C(=O)O)C[C@@H]1N=C(N)N | Influenza A virus (H6N2) | - | IC50 | target | Neuraminidase | - | 0.92 µM
Nc1ccn(C[C@@H](CO)OCP(=O)(O)O)c(=O)n1 | Monkeypox virus | VERO 76 | EC50 | culture | - | - | 96 µM
CCN(C)c1nc(N)nc2c1ncn2CCOCP(=O)(O)O | - | PHK | CC50 | toxicity | - | - | 2.2 µg/mL
COC(=O)[C@H](Cc1ccc(C(N)=O)cc1)NC(=O)c1ccc2c(c1)nc(-c1ccoc1)n2C1CCCCC1 | Poliovirus | - | IC50 | target | RNA-dependent RNA polymerase | - | >25 µM
Nc1ccn(C[C@@H](CO)OCP(=O)(O)O)c(=O)n1 | - | PHK | CC50 | toxicity | - | - | ≥34 µg/mL
NC(=O)c1csc([C@@H]2O[C@H](CO)[C@@H](O)[C@H]2O)n1 | Japanese encephalitis virus | VERO 76 | EC50 | culture | - | Nakayama | 73 µg/mL
Nc1nc(NC2CCCC2)c2ncn(CCOCP(=O)(O)O)c2n1 | - | PHK | CC50 | toxicity | - | - | 7.1 µg/mL
COC(=O)[C@H](Cc1cn(C)c2ccc(OCC(=O)O)cc12)NC(=O)c1ccc2c(c1)nc(-c1ccoc1)n2C1CCCCC1 | Poliovirus | - | IC50 | target | RNA-dependent RNA polymerase | - | >25 µM
Nc1nc(N)c2ncn(CC(CO)OCP(=O)(O)O)c2n1 | - | PHK | CC50 | toxicity | - | - | 17.3 µg/mL
O=C(O)c1ccc2c(c1)nc(-c1cc(Br)cs1)n2C1CCCCC1 | Poliovirus | - | IC50 | target | RNA-dependent RNA polymerase | - | >25 µM

For reference, 2 entries again:

COC(=O)[C@H](Cc1cn(C)c2ccc(OCC(=O)O)cc12)NC(=O)c1ccc2c(c1)nc(-c1ccoc1)n2C1CCCCC1 ; species: Poliovirus ; endpoint: IC50 ; test: target ; protein: RNA-dependent RNA polymerase ; value: >25 µM
O=C(N[C@@H](Cc1c[nH]c2ccc(NS(=O)(=O)C(F)(F)F)cc12)C(=O)O)c1ccc2c(c1)nc(-c1ccoc1)n2C1CCCCC1 ; species: Poliovirus ; endpoint: IC50 ; test: target ; protein: RNA-dependent RNA polymerase ; value: >25 µM

CCn: concentration that lowers growth or viability of the cells by n%. Blank or dashed fields: not listed here. ECn is the concentration giving n% inhibition of infection, replication or growth. ICn is the concentration giving n% inhibition.